In this assay the target is T1, Enoyl-[acyl-carrier-protein] reductase [NADH] (Burkholderia pseudomallei, UniProt Q3JG55).
T1 sequence (Q3JG55 whole entry): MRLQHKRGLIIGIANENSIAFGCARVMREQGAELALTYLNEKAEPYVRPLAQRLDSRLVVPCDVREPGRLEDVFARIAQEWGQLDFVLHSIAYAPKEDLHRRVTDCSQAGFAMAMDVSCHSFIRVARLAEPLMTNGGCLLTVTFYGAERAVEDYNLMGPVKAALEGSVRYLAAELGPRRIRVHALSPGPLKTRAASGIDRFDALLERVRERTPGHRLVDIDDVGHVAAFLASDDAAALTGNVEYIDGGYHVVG
Particulars: pH 8; 25 °C.

As for `CCc1ccc(Oc2ccccc2)c(O)c1` [PT01], the Ki – broadly, a measure of affinity in units of concentration, obtained from inhibition or displacement – came out at 32 nM.
